Compound potency records, mixed from different reports. Data source: NIAID ChemDB in PubChem.

All rows: toxicity to cultured cells; cells: H9; read-out: CC50

CCn: concentration that lowers growth or viability of the cells by n%.

structure | value
CCC(c1cccc(NS(=O)(=O)c2ccc(C#N)cn2)c1)c1c(O)c2c(oc1=O)CCCCC2 | >30 µM
Cc1cn([C@H]2C[C@H](N=[N+]=[N-])[C@@H](CO)O2)c(=O)[nH]c1=O | >500 µM
COc1cc2c(cc1OC)[C@H](O)[C@H]1COC(=O)[C@@H]1[C@@H]2c1cc(OC)c(OC)c(OC)c1 | 7.53 µg/mL
CC1(C)CC[C@]2(C(=O)O)CC[C@]3(C)C(=CC[C@@H]4[C@@]5(C)CC[C@H](O)C(C)(C)[C@@H]5CC[C@]43C)[C@@H]2C1 | 21.8 µg/mL
Oc1cc(O)c2c(c1)O[C@H](c1cc(O)c(O)c(O)c1)[C@H](O)C2 | 1.8 µg/mL
NC[C@H]1O[C@@H](n2cnc3c(N)ncnc32)[C@H](O)[C@@H]1F | 100 µg/mL
Cc1cn([C@H]2C[C@H](N=[N+]=[N-])[C@@H](CO)O2)c(=O)[nH]c1=O | 500 µg/mL
CCC(C1=C(O)C2CCCC2OC1=O)c1cccc(NS(=O)(=O)c2ccc(C#N)cn2)c1 | >30 µM
CCc1cc(NCc2nc3c(C)ccc(C)c3o2)c(=O)[nH]c1C | >60 µM
C[C@@H]1CC[C@]2(C(=O)O)CC[C@]3(C)C(=CCC4[C@@]5(C)CC(=O)[C@H](O)C(C)(C)C5CC[C@]43C)C2[C@]1(C)O | 40 µg/mL
O=C1OCC2OC(=O)c3cc(O)c(O)c(O)c3-c3c(O)c(O)c(O)c4c3C(=O)OC(C2OC(=O)c2cc(O)c(O)c(O)c2-c2c1cc(O)c(O)c2O)C1OC(=O)C2C4=C(O)C(=O)C23Oc2cc(O)c4c(c2C13)O[C@H](c1ccc(O)c(O)c1)C(O)C4 | 15 µM
Cc1cn([C@H]2C[C@H](F)[C@@H](CO)O2)c(=O)[nH]c1=O | 5 µM
CCC(c1cccc(NS(=O)(=O)c2ccc(C#N)cn2)c1)c1c(O)c2c(oc1=O)CCCCCC2 | >30 µM
Cc1cn([C@H]2C[C@H](N=[N+]=[N-])[C@@H](CO)O2)c(=O)[nH]c1=O | 500 µg/mL
O=C(O[C@@H]1OC2CC(=O)c3cc(O)c(O)c(O)c3-c3c(cc(O)c(O)c3O)C(=O)OC2C2OC(=O)c3cc(O)c(O)c(O)c3-c3c(cc(O)c(O)c3O)C(=O)OC21)c1cc(O)c(O)c(O)c1 | 32 µM
C=COC(=O)Oc1c(OC)cc([C@@H]2c3cc4c(cc3[C@@H](O)[C@H]3COC(=O)[C@H]23)OCO4)cc1OC | 0.136 µg/mL
O=C(OC1[C@H](O)CC(OC(=O)c2cc(O)c(O)c(O)c2)(C(=O)O)C[C@H]1O)c1cc(O)c(O)c(O)c1 | 45 µM
Cc1cc(=S)oc2c3c(ccc12)OC(C)(C)[C@H](OC(=O)C12CCC(C)(C(=O)O1)C2(C)C)[C@@H]3OC(=O)C12CCC(C)(C(=O)O1)C2(C)C | >153 µM
O=c1ccn([C@H]2C[C@H](F)[C@@H](CO)O2)c(=O)[nH]1 | >500 µM
COc1cc2c(cc1OC)[C@@H](Nc1ccc([N+](=O)[O-])cc1)[C@H]1COC(=O)[C@@H]1[C@@H]2c1cc(OC)c(OC)c(OC)c1 | 5.29 µg/mL
O=C(O[C@@H]1[C@@H](c2c(O)cc3c(c2O)C[C@@H](OC(=O)c2cc(O)c(O)c(O)c2)[C@@H](c2cc(O)c(O)c(O)c2)O3)c2c(O)cc(O)cc2O[C@@H]1c1cc(O)c(O)c(O)c1)c1cc(O)c(O)c(O)c1 | 30 µg/mL
CC(CC(=O)O)CC(=O)O[C@H]1CC[C@@]2(C)C(CC[C@]3(C)C2CC=C2C4CC(C)(C)CC[C@]4(C(=O)O)CC[C@]23C)C1(C)C | 27.5 µg/mL
CC1(C)Oc2ccc3ccc(=O)oc3c2[C@@H](OC(=O)C23CCC(C)(C(=O)O2)C3(C)C)[C@H]1OC(=O)C12CCC(C)(C(=O)O1)C2(C)C | 35 µM
O=C(O[C@@H]1Cc2c(O)cc(O)cc2O[C@@H]1c1cc(O)c(=O)c2c(O)c(O)cc([C@H]3Oc4cc(O)cc(O)c4C[C@H]3OC(=O)c3cc(O)c(O)c(O)c3)c2c1)c1cc(O)c(O)c(O)c1 | 48 µg/mL
CC1(C)CC[C@]2(C(=O)O)CC[C@]3(C)C(=CC[C@@H]4[C@@]5(C)C[C@@H](O)[C@@H]6OC(=O)c7cc(O)c(O)c(O)c7-c7c(cc(O)c(O)c7O)C(=O)OC[C@@]6(CO)[C@@H]5CC[C@]43C)[C@@H]2C1 | 40 µM
Oc1cc(O)c2c(c1)O[C@H](c1cc(O)c(O)c(O)c1)[C@@H](O)[C@@H]2c1c(O)cc(O)c2c1O[C@H](c1cc(O)c(O)c(O)c1)[C@H](O)C2 | 18 µg/mL
CCC(C1=C(O)C2CCCCCCC2OC1=O)c1cccc(NS(=O)(=O)c2ccc(C#N)cn2)c1 | >30 µM
CC1(C)CC[C@]2(C(=O)O)CC[C@]3(C)C(=CCC4[C@@]5(C)CC[C@H](OC(=O)COCC(=O)O)C(C)(C)C5CC[C@]43C)C2C1 | 22.1 µg/mL
COc1cc([C@@H]2c3cc4c(cc3[C@@H](O[C@@H]3O[C@@H]5CO[C@@H](C)O[C@H]5[C@H](O)[C@H]3O)[C@H]3COC(=O)[C@H]23)OCO4)cc(OC)c1O | 1.27 µg/mL
CC1(C)CC[C@]2(C(=O)O)CC[C@]3(C)C(=CCC4[C@@]5(C)CC[C@H](OC(=O)CCCC(=O)O)C(C)(C)C5CC[C@]43C)C2C1 | 14.6 µg/mL
Oc1cc(O)c2c(c1)O[C@H](c1ccc(O)c(O)c1)[C@H](O)C2 | 45 µM
Cc1cn([C@H]2C[C@H](F)[C@@H](CO)O2)c(=O)[nH]c1=O | >500 µM
Cc1cn([C@H]2C[C@H](N=[N+]=[N-])[C@@H](CO)O2)c(=O)[nH]c1=O | 1875 µM
Nc1ccn([C@@H]2O[C@H](CO)C[C@H]2F)c(=O)n1 | 90 µg/mL
CCCc1cc(=S)oc2c3c(ccc12)OC(C)(C)[C@H](OC(=O)C12CCC(C)(C(=O)O1)C2(C)C)[C@@H]3OC(=O)C12CCC(C)(C(=O)O1)C2(C)C | >148 µM
COc1cc2c(cc1OC)[C@@H](Nc1ccc(F)cc1)[C@H]1COC(=O)[C@@H]1[C@@H]2c1cc(OC)c(OC)c(OC)c1 | 1.43 µg/mL
CC1(C)CC[C@]2(C(=O)O)CC[C@]3(C)C(=CC[C@@H]4[C@@]5(C)CC[C@H](OC(=O)CC(C)(C)C(=O)O)C(C)(C)[C@@H]5CC[C@]43C)[C@@H]2C1 | 11.2 µg/mL

5 of the rows above, restated:

structure,value
Cc1cn([C@H]2C[C@H](N=[N+]=[N-])[C@@H](CO)O2)c(=O)[nH]c1=O,>500 µM
CC1(C)CC[C@]2(C(=O)O)CC[C@]3(C)C(=CCC4[C@@]5(C)CC[C@H](OC(=O)CCCC(=O)O)C(C)(C)C5CC[C@]43C)C2C1,14.6 µg/mL
Cc1cn([C@H]2C[C@H](N=[N+]=[N-])[C@@H](CO)O2)c(=O)[nH]c1=O,1875 µM
O=C(O[C@@H]1[C@@H](c2c(O)cc3c(c2O)C[C@@H](OC(=O)c2cc(O)c(O)c(O)c2)[C@@H](c2cc(O)c(O)c(O)c2)O3)c2c(O)cc(O)cc2O[C@@H]1c1cc(O)c(O)c(O)c1)c1cc(O)c(O)c(O)c1,30 µg/mL
O=C(O[C@@H]1Cc2c(O)cc(O)cc2O[C@@H]1c1cc(O)c(=O)c2c(O)c(O)cc([C@H]3Oc4cc(O)cc(O)c4C[C@H]3OC(=O)c3cc(O)c(O)c(O)c3)c2c1)c1cc(O)c(O)c(O)c1,48 µg/mL

Lines come from different laboratories, so protocols vary.